Measured values from PubChem BioAssay AID2629 (Broad Institute, 2010).
This is a selection; strong and weak results do not stand in their true shares. The source made the active and inactive calls. Rule as the data show it: active = inhibition mostly above about 10% (no sharp cut-off); inactive = mostly below about 6.7%.

Amino acid sequences for entries named in this document (tags omitted).
UniProt Q9QR71, whole entry: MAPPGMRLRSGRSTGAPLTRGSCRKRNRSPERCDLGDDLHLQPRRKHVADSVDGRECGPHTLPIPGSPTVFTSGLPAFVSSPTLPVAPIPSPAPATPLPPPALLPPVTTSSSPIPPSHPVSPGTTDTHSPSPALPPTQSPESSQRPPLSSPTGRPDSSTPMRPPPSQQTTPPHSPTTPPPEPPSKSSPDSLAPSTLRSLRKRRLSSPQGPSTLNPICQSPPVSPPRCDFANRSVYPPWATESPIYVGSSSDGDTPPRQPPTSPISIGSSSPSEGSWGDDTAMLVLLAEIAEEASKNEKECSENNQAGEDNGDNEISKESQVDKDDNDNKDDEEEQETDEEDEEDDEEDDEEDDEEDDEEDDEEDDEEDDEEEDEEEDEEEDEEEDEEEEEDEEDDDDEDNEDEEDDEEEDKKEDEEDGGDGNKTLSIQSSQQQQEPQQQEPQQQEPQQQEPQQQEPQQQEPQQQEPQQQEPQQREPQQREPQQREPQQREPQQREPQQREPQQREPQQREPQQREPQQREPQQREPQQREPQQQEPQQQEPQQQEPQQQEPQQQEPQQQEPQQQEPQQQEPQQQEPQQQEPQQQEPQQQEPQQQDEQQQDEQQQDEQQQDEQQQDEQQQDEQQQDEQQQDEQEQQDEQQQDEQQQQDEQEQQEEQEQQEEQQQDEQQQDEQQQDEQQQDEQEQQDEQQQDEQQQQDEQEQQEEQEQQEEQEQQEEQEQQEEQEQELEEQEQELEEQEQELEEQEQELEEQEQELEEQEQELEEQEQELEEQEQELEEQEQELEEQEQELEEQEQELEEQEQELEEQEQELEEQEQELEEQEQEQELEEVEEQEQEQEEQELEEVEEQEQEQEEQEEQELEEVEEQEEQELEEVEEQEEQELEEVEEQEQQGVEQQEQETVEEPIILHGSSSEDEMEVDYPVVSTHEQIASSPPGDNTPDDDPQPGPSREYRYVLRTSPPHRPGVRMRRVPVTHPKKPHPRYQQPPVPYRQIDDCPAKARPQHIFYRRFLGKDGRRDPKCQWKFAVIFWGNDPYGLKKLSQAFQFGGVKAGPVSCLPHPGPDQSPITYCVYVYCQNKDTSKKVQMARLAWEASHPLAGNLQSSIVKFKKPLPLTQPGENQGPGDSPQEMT

These compounds were tested against Protein LANA1 (Human herpesvirus 8 type P (isolate GK18)) (UniProt Q9QR71) (assay: blockers of LANA interaction with H2A/H2B – biochemical, FP readout, HTS, primary screen (AID 2629)). Details: cell-free LANA-H2A/H2B peptide, fluorescence polarization; stronger effect = higher value; concentration not given here.
In the case of `c1nnnn1CCn1cnnn1`, the inhibition is reported as inactive: 0.155%.
In the case of `CCOP(C)(=S)SCC(=O)NC(C)(CC)C(=O)O` (stereo not drawn), the inhibition is reported as inactive: -7.21%.
In the case of `CP(=O)(Nc1ccc2c(c1)OCCO2)Oc1ccccc1` (stereo not drawn), the inhibition is reported as inactive: 2.15%.
For `Cc1ccccc1NP(C)(=O)Nc1ccccc1C`, the inhibition was inactive: 1.43%.
`CN(C)C1(CNC(=O)c2ccc(Cl)c(S(N)(=O)=O)c2)CCCCC1` was tested, and the inhibition was inactive: 1.79%.
With `O=P(Nc1ccccn1)(c1ccc(Br)cc1)c1ccc(Br)cc1` the inhibition was inactive: -5.23%.
With `COc1ccc(OP(C)(=O)Nc2cccc(Br)c2)cc1` (stereo not drawn) the inhibition was inactive: 0.928%.
In the case of `COc1ccc(NP(C)(=O)Oc2ccccc2OC)cc1` (stereo not drawn), the inhibition is reported as inactive: 0.0822%.
For `O=P(Nc1nc2ccccc2s1)(c1ccccc1)c1ccccc1`, the inhibition was inactive: 5.84%.
In the case of `CN(C)CCOC(=O)C(O)(c1ccccc1)C1CCCCC1` (stereo not drawn), the inhibition is reported as inactive: -1.24%.
`C[C@H]1OP(=O)(Oc2ccccc2)[C@H](O)[C@H](O)[C@H]1N=[N+]=[N-]` (stereo partly drawn) was tested, and the inhibition was inactive: 9.71%.
With `O=[As](O)(c1ccccc1)c1ccc(O)cc1` the inhibition was inactive: 4.73%.
For `O=[N+]([O-])c1cc([N+](=O)[O-])c(NCC2CCS(=O)(=O)C2)c([N+](=O)[O-])c1` (stereo not drawn), the inhibition was inactive: -1.85%.
In the case of `O=[N+]([O-])c1ncn(CCn2cnc([N+](=O)[O-])n2)n1`, the inhibition is reported as inactive: 1.86%.
`CC(=O)NC(SC(=S)N(C)C)C(Cl)(Cl)Cl` (stereo not drawn) was tested, and the inhibition was inactive: 6.61%.
With `O=[N+]([O-])c1ccc(OP2(=O)COCCO2)cc1` (stereo not drawn) the inhibition was inactive: 0.0397%.
In the case of `O=[N+]([O-])c1ccc(O)c(/C=N/Nc2ccc([N+](=O)[O-])cc2[N+](=O)[O-])c1`, the inhibition is reported as inactive: 7.16%.
With `O=C(OC1CN2CCC1CC2)c1cccc(Cl)c1` (stereo not drawn) the inhibition was inactive: -0.277%.
`C(Cc1nn[nH]n1)Cc1nn[nH]n1` was tested, and the inhibition was inactive: 1.41%.
In the case of `Nc1ccc([As](=O)(O)c2ccc([N+](=O)[O-])cc2)cc1`, the inhibition is reported as inactive: 0.931%.
`c1ccc(-c2nn[nH]n2)c(-c2nn[nH]n2)c1` was tested, and the inhibition was inactive: -4.32%.
`CCOC(=O)NC(Sc1ccccc1)C(Cl)(Cl)Cl` (stereo not drawn) was tested, and the inhibition was inactive: 2.13%.
`Cc1ccc(NP(=O)(Oc2cccc(C)c2)Oc2cccc(C)c2)nc1` was tested, and the inhibition was inactive: -4.71%.
With `O=C(NC1CCS(=O)(=O)C1)NP(=S)(Oc1ccccc1)Oc1ccccc1` (stereo not drawn) the inhibition was inactive: -0.539%.
`CCNC(=S)/N=C(\N)N[N+](=O)[O-]` was tested, and the inhibition was inactive: 2.27%.
`COc1ccc(OP(C)(=O)Nc2ccc(SC(F)(F)F)cc2)cc1` (stereo not drawn) was tested, and the inhibition was inactive: 0.0736%.
With `CCOC(=O)c1ccc(NP(C)(=O)Oc2ccc(F)cc2)cc1` (stereo not drawn) the inhibition was inactive: 2.11%.
In the case of `O=C(OC1CN2CCC1CC2)c1ccccc1` (stereo not drawn), the inhibition is reported as inactive: 0.239%.
